Primary screen of a compound library

From ChEMBL document CHEMBL3988442, “University of Dundee, Small-Polar-MMV Screening Library” (2021).

A: 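Whole-cell growth test on Mycobacterium tuberculosis, read after 3 days in glucose-containing 7H9 medium; the read-out is not stated. Tested at 500 µM. The record gives no direction; compounds that gave an IC50 in retests scored well above the rest, so higher reads as more growth inhibition. Of about 18,000 compounds tested this way, about 1,400 (7.9%) reached 50% or more in at least one test.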
B: 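Growth of Mycobacterium tuberculosis over 4 days (cholesterol / DPPC medium with tyloxapol); the read-out is not stated. Tested at 500 µM. The record gives no direction; compounds that gave an IC50 in retests scored well above the rest, so higher reads as more growth inhibition. About 18,000 compounds were tested under these conditions; 5% (about 900) showed 50% or more at least once.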

Values are the deposited “Percent Effect”, in %.
The controls that fix the scale are not given in the record; negative values are as filed.
This is part of a subset picked to be rich in strong results.
A dash means the value is not listed here; it may have been measured.

* Cn1ccc(C(=O)N2CCC2c2ccccc2)cc1=O (stereo not given) | A: 14.23%
* CCC(CO)NC(=O)Nc1ccc(N2CCCC2)nc1 (stereo not given) | A: 1.875%
* Brc1ccc(N2CCNCC2)nc1 | A: 57.67%
* CN(CC1CC1)C(=O)c1cccnc1-n1cccn1 | A: 5.965%
* CNCc1cc(C(F)(F)F)nn1C | A: 9.409%
* c1ccc2c(c1)COC21CCNC1 (stereo not given) | A: -5.368%
* NCCC1CNCCO1 (stereo not given) | A: 4.063%
* COCCC(=O)NCc1ccccc1CN(C)C | A: 2.277%
* Cc1ccc(NS(C)(=O)=O)cc1N1CCCC1=O | A: 5.548%
* CN(CC(=O)Nc1ccsc1)C(=O)c1ccco1 | B: 49.84%
* CN(Cc1nc(N)nc(N(C)C)n1)CC1CCCO1 (stereo not given) | A: 16.94%
* Cc1cc(C)c(C(=O)N2CC(CO)C2)o1 | A: 3.299%
* CSCCC(O)C(=O)NCC1(Cn2ccnc2)CC1 (stereo not given) | A: -1.335%
* CCC(C(=O)Nc1ncc(C)[nH]1)N1CCCC1=O (stereo not given) | B: -0.2127%
* CCn1ncnc1CN1CCCC1c1ccccn1 (stereo not given) | A: 33.73%
* NC(=O)CCN1C(=O)c2ccccc2S1(=O)=O | A: -3.502%; B: -19.36%
* CN(CC(=O)N(C)C)Cc1ccc(F)cc1Cl | B: 0.3099%
* COc1ccccc1C(N)c1ccccn1 (stereo not given) | A: 59.12%
* O=C(NC1CCS(=O)(=O)C1)N1CCc2ccccc2C1 (stereo not given) | B: 2.901%
* CCn1cc(CNC(=O)c2cccnc2SC)c(C)n1 | A: 22.29%
* CCCc1noc(CN2CCN(CC(O)CC)CC2)n1 (stereo not given) | B: 4.224%
* CCn1ccc(=O)[nH]c1=O | A: 3.229%
* CN(C)c1ncccc1CNc1nnc(C(F)F)o1 | A: 26.96%
* CC(=O)N(C)CC(=O)N1CCSCC1 | A: -4.374%
* CC(C)c1ncc(C(=O)Nc2ccc(C(N)=O)nc2)s1 | B: 3.587%
* CN1N=C(C(=O)NCCCN(C)S(C)(=O)=O)CCC1=O | A: 3.131%
* CCC(CC)(CO)NCCn1cc(Br)cn1 | A: -1.142%
* COc1cc(OC)cc(N2CCC(N)C2)c1 (stereo not given) | A: 76.13%; B: 51.42%
* CSc1nc2ccsc2c(=O)n1CC(=O)N1CCCC1 | A: 2.609%
* CC(CN)N1CCN(C)CC1 (stereo not given) | A: 14.18%
* CNC(=O)CCN1CCSC2(CCCCC2)C1 | B: 20.32%
* Cc1nn(C)c(N(C)C)c1CNCc1nncn1C | A: 8.87%
* CC(=O)NCc1cccc(OCc2ccccn2)c1 | A: 37.57%
* Cc1nnnn1-c1cccc(O)c1 | B: 18.71%

The first 4 entries again:

| Compound | A | B |
|---|---|---|
| `Cn1ccc(C(=O)N2CCC2c2ccccc2)cc1=O` (stereo not given) | 14.23% | - |
| `CCC(CO)NC(=O)Nc1ccc(N2CCCC2)nc1` (stereo not given) | 1.875% | - |
| `Brc1ccc(N2CCNCC2)nc1` | 57.67% | - |
| `CN(CC1CC1)C(=O)c1cccnc1-n1cccn1` | 5.965% | - |